A mixed list of measured activities; the numbers were collected in NIAID ChemDB.

Common to all: whole-cell or culture tests; species: HIV-1

An empty or dashed field is not shown. Neighbouring rows are from separate reports. ECn: concentration that inhibits the pathogen or its effect by n%.

structure | cell line | strain or isolate | changes | endpoint | read by | result
CC(C)c1nc(CN(C)C(=O)N[C@H](C(=O)N[C@@H](Cc2ccccc2)C[C@H](O)[C@H](Cc2ccccc2)NC(=O)OCc2cncs2)C(C)C)cs1 | MT-4 | NL4-3-P28 (PR M46I I84V) | PR-M46I I84V | EC50 | p24 | <0.9 µM
Nc1ccn([C@H]2CC[C@@H](CO)O2)c(=O)n1 | MT-4 | IIIB-AZT-1 (RT D67N K70R V108A I135T T215Y) | RT-D67N K70R V108A I135T T215Y | EC50 |  | 0.55 µM
C[C@H](Cn1cnc2c(N)ncnc21)OCP(=O)(O)O | PBMC | NL4-3 |  | EC50 | luciferase | 0.49 µM
COc1cc2c(c(OC)c1CC=C(C)C)C[C@H](c1ccc(O)c(CC=C(C)C)c1O)CO2 | MT-4 | IIIB |  | EC50 | MTT | 14 µg/mL
N#Cc1cn(C[C@H](CF)OCP(=O)(O)O)c2nc(N)[nH]c(=O)c12 | TZM-bl | BaL |  | EC50 | luciferase | >100 µM
CC(=O)O[C@@]12C[C@@H](C)[C@@]3(O)[C@@H](C=C(CO)C[C@]4(O)C(=O)C(C)=C[C@@H]34)[C@@H]1C2(C)C | C8166 | NL4-3 | Vif-deficient | EC50 | p24 / ELISA | >10 µM
Nc1nc2c(ncn2COCCO)c(=O)[nH]1 | PBMC | LAI |  | EC90 | RT activity | >100 µM
CC(C)=CCc1c(O)cc(-c2cc3ccc(O)cc3o2)cc1O | MT-4 | IIIB |  | EC50 | MTT | 1.6 µg/mL
Nc1ccn([C@H]2CC[C@@H](CO)O2)c(=O)n1 | MT-4 | RF |  | EC50 | cytopathic effect / MTT | 0.22 µM
COc1c(/C=C/C(=O)c2ccc(O)cc2)ccc(O)c1O | MT-4 | IIIB |  | EC50 | cytopathic effect / MTT | >20 µg/mL
O=C(N[C@H]1c2ccccc2OC[C@H]1O)[C@H](Cc1nnco1)C[C@H](O)CN1CCN(Cc2ccc(-c3ccc(Cl)cc3)o2)C[C@H]1C(=O)NCC(F)(F)F | MT-4 | Q-60 Clinical isolate | PR-L10I N37S R41K M46I I54V I62V L63P A71V V77I V82A L90M I93L | EC95 | p24 | 0.031 µM
CCCCCc1ccc(-c2cc3cn(COCCO)c(=O)nc3o2)cc1 | PBMC | LAI |  | EC90 | RT activity | >100 µM
CN1N=C(N)c2cn([C@@H]3O[C@H](COP(=O)(O)O)[C@@H](O)[C@H]3O)c3ncnc1c23 | CEM + CEM-SS |  |  | EC50 | syncytia / thymidine uptake | 0.01 µM
CCCc1nnc(C[C@H](C[C@H](O)CN2CCN(C(C)(C)c3ncc(-c4ccc(F)cc4)o3)C[C@H]2C(=O)NCC(F)(F)F)C(=O)N[C@H]2c3ccccc3OC[C@H]2O)o1 | MT-4 | V-18 Clinical isolate | PR-L10I M36I N37D M46I R57K L63P A71V G73S I84V L90M I93L | EC95 | p24 | 0.063 µM
Nc1nc2c(ccn2C[C@@H](CF)OCP(=O)(O)O)c(=O)[nH]1 | PBMC | BaL |  | EC50 | luciferase | >100 µM
CC(C)(c1ncc(-c2ccc(F)cc2)o1)N1CCN(C[C@@H](O)C[C@@H](Cc2nnc(-c3ccccc3)o2)C(=O)N[C@H]2c3ccccc3OC[C@H]2O)[C@H](C(=O)NCC(F)(F)F)C1 | MT-4 | Q-60 Clinical isolate | PR-L10I N37S R41K M46I I54V I62V L63P A71V V77I V82A L90M I93L | EC95 | p24 | 0.016 µM
Cc1cn([C@H]2C[C@H](N=[N+]=[N-])[C@@H](CO)O2)c(=O)[nH]c1=O | HELA/CD4 + HELA CD4+ | HXB2 |  | EC50 | plaque count | 0.02 µM
CCCCCc1ccc(-c2cc3cn(CC=C(CO)CO)c(=O)nc3o2)cc1 | PBMC | LAI |  | EC50 | RT activity | 4.9 µM
c1ccc(CNCc2ccc(CN3CCCNCCNCCCNCC3)cc2)nc1 |  | BaL |  | EC50 |  | >5 µg/mL
O=C(N[C@H]1c2ccccc2OC[C@H]1O)[C@H](Cc1nnc(-c2ccccc2)o1)C[C@H](O)CN1CCN(Cc2ccc(-c3ccc(Cl)cc3)o2)C[C@H]1C(=O)NCC(F)(F)F | MT-4 | Q-60 Clinical isolate | PR-L10I N37S R41K M46I I54V I62V L63P A71V V77I V82A L90M I93L | EC50 | p24 | <0.063 µM
CC1(C)C=Cc2cc(-c3coc4cc(O)cc(O)c4c3=O)cc(O)c2O1 | MT-4 | IIIB |  | EC50 | MTT | >100 µg/mL
N#Cc1cn(C[C@@H](CF)OCP(=O)(O)O)c2nc(N)[nH]c(=O)c12 | TZM-bl | BaL |  | EC50 | luciferase | >100 µM
COCOc1ccc(C2CC(=O)c3c(O)cc(OCOC)cc3O2)c(OCOC)c1 | MT-4 | IIIB |  | EC50 | MTT | >100 µg/mL
CC(=O)c1cn(C/C=C/C(O)CO)c(=O)[nH]c1=O | PBMC | LAI |  | EC50 | RT activity | >100 µM
C/C(=C\Cc1c(O)cc(O)c2c(=O)c(-c3ccc(O)cc3)coc12)CO | MT-4 | IIIB |  | EC50 | MTT | >20 µg/mL
Cc1nnc(C[C@H](C[C@H](O)CN2CCN(C(C)(C)c3ncc(-c4ccc(Cl)cc4)o3)C[C@H]2C(=O)NCC(F)(F)F)C(=O)N[C@H]2c3ccccc3OC[C@H]2O)o1 | MT-4 | K-60 Clinical isolate | PR-L10I M46I I54V Q58E L63P I64V V77I V82F I84V L90M I93L | EC95 | p24 | 0.031 µM
COc1c(-c2ccc(O)c(O)c2)oc2c(CC=C(C)C)c(O)c(CC=C(C)C)c(O)c2c1=O | MT-4 | IIIB |  | EC50 | cytopathic effect / MTT | >200 µg/mL
CC(C)=CCN1Cc2cc(Cl)cc3[nH]c(=S)n(c23)C[C@@H]1C | CEM + CEM-SS | IIIB |  | EC50 | cytopathic effect / MTT | 0.067 µM
COc1ccc([C@@H]2COc3c(ccc4c3C=CC(C)(C)O4)C2)c(OC)c1 | MT-4 | IIIB |  | EC50 | MTT | >100 µg/mL
COc1ccc(Sc2nc(N)nc3c2ncn3C[C@@H](CF)OP(=O)(O)O)cc1 | PBMC | NL4-3 |  | EC50 | luciferase | >100 µM
CC(C)(c1ncc(-c2ccc(Cl)cc2)o1)N1CCN(C[C@@H](O)C[C@@H](Cc2nnc(-c3ccccc3)o2)C(=O)N[C@H]2c3ccccc3OC[C@H]2O)[C@H](C(=O)NCC(F)(F)F)C1 | MT-4 | V-18 Clinical isolate | PR-L10I M36I N37D M46I R57K L63P A71V G73S I84V L90M I93L | EC95 | p24 | 0.125 µM
COc1c(O)ccc(C2CC(=O)c3c(O)cc(O)c(CC=C(C)C)c3O2)c1CC=C(C)C | MT-4 | IIIB |  | EC50 | MTT | 3 µg/mL
Nc1nc2c(c(F)cn2C[C@@H](CF)OCP(=O)(O)O)c(=O)[nH]1 | TZM-bl | NL4-3 |  | EC50 | luciferase | >100 µM
CC(C)(c1ncc(-c2ccc(F)cc2)o1)N1CCN(C[C@@H](O)C[C@@H](Cc2nnco2)C(=O)N[C@H]2c3ccccc3OC[C@H]2O)[C@H](C(=O)NCC(F)(F)F)C1 | MT-4 | K-60 Clinical isolate | PR-L10I M46I I54V Q58E L63P I64V V77I V82F I84V L90M I93L | EC50 | p24 | <0.125 µM

The last 5 rows once more:

| structure | cell line | strain or isolate | changes | endpoint | read by | result |
|---|---|---|---|---|---|---|
| COc1ccc(Sc2nc(N)nc3c2ncn3C[C@@H](CF)OP(=O)(O)O)cc1 | PBMC | NL4-3 |  | EC50 | luciferase | >100 µM |
| CC(C)(c1ncc(-c2ccc(Cl)cc2)o1)N1CCN(C[C@@H](O)C[C@@H](Cc2nnc(-c3ccccc3)o2)C(=O)N[C@H]2c3ccccc3OC[C@H]2O)[C@H](C(=O)NCC(F)(F)F)C1 | MT-4 | V-18 Clinical isolate | PR-L10I M36I N37D M46I R57K L63P A71V G73S I84V L90M I93L | EC95 | p24 | 0.125 µM |
| COc1c(O)ccc(C2CC(=O)c3c(O)cc(O)c(CC=C(C)C)c3O2)c1CC=C(C)C | MT-4 | IIIB |  | EC50 | MTT | 3 µg/mL |
| Nc1nc2c(c(F)cn2C[C@@H](CF)OCP(=O)(O)O)c(=O)[nH]1 | TZM-bl | NL4-3 |  | EC50 | luciferase | >100 µM |
| CC(C)(c1ncc(-c2ccc(F)cc2)o1)N1CCN(C[C@@H](O)C[C@@H](Cc2nnco2)C(=O)N[C@H]2c3ccccc3OC[C@H]2O)[C@H](C(=O)NCC(F)(F)F)C1 | MT-4 | K-60 Clinical isolate | PR-L10I M46I I54V Q58E L63P I64V V77I V82F I84V L90M I93L | EC50 | p24 | <0.125 µM |